What all share (assay): cell-based or functional assay
In test [1] the target is SARS-CoV-2 spike protein on live wild type virus SARS-CoV-2/England/IC19/2020 (SARS-CoV-2, UniProt P0DTC2 14-1273).
The target in test [2] is SARS-CoV-2 spike protein of the B.1.351 (Beta) strain live virus (SARS-CoV-2).
In test [3] the target is SARS-CoV-2 spike protein of the WA-1 strain live virus (carrying D614G) (SARS-CoV-2, UniProt P0DTC2 14-1273).

The values that follow come from patent US20250026813A1, “Antibodies against sars-cov-2 and uses thereof” (published 2025).

B1: IMPI-060 (antibody, V domains shown)
VH: EVQLVESGGGLIQPGGSLRLSCAASGVTVSSNYMSWVRQAPGKGLEWVSVIYSGGSTFYADSVKGRFTISRDNSKNTLYLQMNSLRAEDTAVYYCARDLSYYGMDVWGQGTTVTVSS
VL: DIQLTQSPSFLSASVGDRVTITCWASQGISSYLAWYQQKPGKAPKLLIYAASTLQSGVPSKFSGSGSGTEFTLTISSLQPEDFATYYCQQLNSYPSSFGQGTKLEIK
Consider B1, for which the “SARS COV2 neutralisation (complete virus inhibition, pM)” value in test [1] came out at 12500 pM.

B2: IMPI-037 (antibody, V domains shown)
VH: not shown
VL: DIQLTQSPSFLSASVGDRVTITCWASQGINSYLAWYQQKPGKAPKLLIYAASTLQSGVPSRFSGSGSGTEFTLTISSLQPEDFTTYYCQQFNDYPRTFGPGTKVEIK
As for B2, the “Live virus B.1.351 strain IC50” value in test [2] is 0.38 ng/mL.

B3: IMPI-002 (antibody, V domains shown)
VH: EVQLVESGGGLIQPGGSLRLSCAASGVTVSSNYMSWVRQAPGKGLEGVSVIYSGGSTYYADSVKGRFTISRDNSKNTLYLQMNSLRAEDTAVYYCARDTVVYGMDVWGQGTTVTVSS
VL: DIQLTQSPSFLSASVGDRVTITCWASQGISSYLAWYQQKPGKAPKLLIYAASTLQSGVPSRFSGSGSGTEFTLTISSLQPEDFATYYCQQLNSYPLTFGGGTKVEIK
As for B3, the “Live virus B.1.351 strain IC50” value in test [2] was 15700 ng/mL.

B4: IMPI-028 (antibody, V domains shown)
VH: EVQLVESGGGLIQPGGSLRLSCAASGFTVSSNYMSWVRQAPGKGLEWVSVIYSGGSTYYADSVKGRFTISRDNSKNTLYLQMNSLRAEDTAVYYCARDYGDLYFDYWGQGTLVTVSS
VL: EIVLTQSPGTLSLSPGERATLSCRASQSISSYLAWYQQKPGQAPRLLIYGASSRATGIPDKFSGSGSGTDFTLTISRLEPEDFAVYYCQQYGSSPRTFGQGTKVEIK
Take B4: the “Live virus B.1.351 strain IC50” value in test [2] is 7440 ng/mL.

B5: IMPI-052 (antibody, V domains shown)
VH: EVQLVESGGGLIQPGGSLRLSCAASGVTVSSNYMNWVRQAPGKGLEGVSVIYSGGTTYYADSVKGRFTISRDNSKNTLYLQMNSLRAEDTAVYYCARDTVVYGMDVWGQGTTVTVSS
VL: DIQLTQSPSFLSASVGDRVTITCWASQGISSYLAWYQQKPGKAPKLLIYTASTLQSGVPSRFSGSGSGTEFTLTISSLQPEDFATYYCQQLNSYPLTFGGGTKVEIK
For the molecule B5, in test [2], the “Live virus B.1.351 strain IC50” value worked out at 3700 ng/mL.

B6: IMPI-022 (antibody, V domains shown)
VH: EVQLVESGGGLVQPGRSLRLSCAASGFTFDDYAMHWVRQAPGKGLEWVSGITWNSGSIGYADSVKGRFTISRDNAKNSLYLHMNSLRVEDTALYYCAKDLQGDYYYYGVDVWGQGTTVTVSS
VL: AIQLTQSPSSLSASVGDRVTITCRASQGISSALAWYQQKPGKAPKLLLYDASSLVSGVPSRFSGSRSGTDFTLTISSLQPEDFATYYCQQFISYPLTFGGGTRVEIK
As to B6, the “Live virus B.1.351 strain IC50” value in test [2] worked out at 1610 ng/mL. In addition, the “Live virus WA-1 strain IC50” value in test [3] amounted to 18 ng/mL.

B7: IMPI-024 (antibody, V domains shown)
VH: EVQLVQSGAEVKKPGESLKISCKGSGYSFTSYWIGWVRQMPGKGLEWMGIIYPGDSDTRYSPSFQGQVTISADKSISTAYLQWSSLKASDTAMYYCVRSYNWNYFDYWGQGTLVTVSS
VL: AIQLTQSPSSLSASVGDRVTITCRASQGISSGLAWYQQKAGKAPKLLIYDVSSLESGVPSRFSGSGSGTDFTLTISSLQPEDFATYYCQQFLSYPWTFGQGTKVEIK
As to B7, the “Live virus B.1.351 strain IC50” value in test [2] worked out at 1240 ng/mL. Besides, the “Live virus WA-1 strain IC50” value in test [3] came to 1000 ng/mL.

B8: IMPI-038 (antibody, V domains shown)
VH: QVQLVESGGGVVQPGRSLRLSCAASGFTFSSYGMHWVRQAPGKGLEWVAVISYDGSDKYYADSVKGRFTISRDNSKNTLYLQMNSLRAEDTAVYYCAKTVAGYYYYYYGMDVWGQGTTVTVSS
VL: DIQMTQSPSSVSASVGDRVTVTCRASQDISSWLAWFQQKPGKAPKFLIYDASNLENGVPSRFSGSGSGTDFTLTISSLQPEDFATYYCQQAKSFPWTFGQGTKVEIN
On to B8, for which the “Live virus B.1.351 strain IC50” value in test [2] amounted to 5890 ng/mL.
